Measured values from several laboratories, pooled; numbers as filed in NIAID ChemDB.

Common to all: whole-cell or culture tests; agent: Aspergillus niger; endpoint: zone

Lines come from different laboratories, so protocols vary. An empty or dashed field is not shown. Zones are inhibition diameters on agar.

structure,dose,strain or isolate,method,value
Cc1ccc(N2NOC(=O)C2S(=O)(=O)Nc2ccc(-n3c(-c4ccccc4Cl)nc4ccccc4c3=O)cc2)cc1,250 µg/mL,MTCC 282,agar diffusion,22 mm
CC(=O)Nc1nc(C)c(-c2n[nH]c(=S)n2N2C(=O)CSC2c2ccc(N(C)C)cc2)s1,100 µg/mL,,agar diffusion,19 mm
CC(=NNC(=O)c1snnc1C(F)(F)F)c1ccc(Br)cc1Br,150 µg/mL,MTCC 1344,agar diffusion / agar,0 mm
Cc1nc2ccccc2n(CC(=O)NN2C(=O)CSC2c2ccc([N+](=O)[O-])cc2)c1=O,100 µg/mL,,,23 mm
O=C(Cc1ccc(-c2nc(-c3ccccc3)c(-c3ccccc3)s2)cc1)CN1CCCCC1,100 µg/mL,ATCC 16404,agar diffusion / agar,19 mm
CC1=C(Cl)C(O)=CC(=O)C12Oc1cc(O)c(Cl)c(C)c1C2=O,100 µg/mL,MTCC 282,agar diffusion,22 mm
Brc1ccc2c(c1)Sc1cccnc1N2CCCCCCN1c2ccc(Br)cc2Sc2cccnc21,100 µg/mL,MTCC 282,,11 mm
COc1ccc(C2N=C(SC)NC(N)=C2C#N)cc1,25 µg/mL,MTCC 282,agar diffusion,13 mm
CC1(C)C=C2C3CCC4[C@@]5(C)CC[C@H](OC(=O)/C=C\c6ccc(O)cc6)C(C)(C)C5CC[C@@]4(C)[C@]3(C)CC[C@@]2(C)CC1,30 mg/disc,UPCC 3701,agar diffusion,0 mm
O=C(COc1ccc(-c2nc(-c3ccccc3)c(-c3ccccc3)s2)cc1)CN1CCCC1,100 µg/mL,ATCC 16404,agar diffusion / agar,24 mm
CSC1=NC(c2ccccc2O)C(C#N)=C(N)N1,50 µg/mL,MTCC 282,agar diffusion,15 mm
c1ccc(-c2nc(-c3ccc(N4CCCCC4)cc3)sc2-c2ccccc2)cc1,100 µg/mL,ATCC 16404,agar diffusion / agar,19 mm
COc1ccc(-c2nc3ccccc3c(=O)n2-c2ccc(NS(=O)(=O)C3C(=O)ONN3c3ccc(C)cc3)cc2)cc1,250 µg/mL,MTCC 282,agar diffusion,20 mm
NC(=S)c1ccc(OC(=O)CN2CCCCC2)cc1,100 µg/mL,ATCC 16404,agar diffusion / agar,21 mm
CC(=O)N1CCN(c2ccc(OC[C@H]3CO[C@](Cn4ccnc4)(c4ccc(Cl)cc4Cl)O3)cc2)CC1,10 mg/disc,,agar diffusion,10.3 mm
Brc1ccc2c(c1)Sc1cccnc1N2CCCCN1c2ccc(Br)cc2Sc2cccnc21,100 µg/mL,MTCC 282,,11 mm
CS(=O)(=O)c1nc(N)c(C#N)c(-c2ccccc2O)n1,50 µg/mL,MTCC 282,agar diffusion,18 mm
CC(C)N1CCN(c2nc(Nc3ccc(C#N)c(C(F)(F)F)c3)nc(Oc3cccc4cccnc34)n2)CC1,100 µg/disc,MTCC 282,agar diffusion / agar,21 mm
COc1ccc(C2CC(=O)C3=C(C2)OC2=C(C(=O)CC(c4ccc(OC)c(OC)c4)C2)C3c2cccc(C3C4=C(CC(c5ccc(OC)c(OC)c5)CC4=O)OC4=C3C(=O)CC(c3ccc(OC)c(OC)c3)C4)c2)cc1OC,140 µg/disc,ATCC 10949,agar diffusion,7 mm
COc1ccc(C2SCC(=O)N2NC(=O)Cn2c(=O)c(C)nc3ccccc32)cc1,50 µg/mL,,,9 mm
O=[N+]([O-])c1ccc2c(c1)nc(C(F)(F)F)n2CCCCl,500 µg/mL,MTCC 1344,,300 mm
Cc1ccc(N2NOC(=O)C2S(=O)(=O)Nc2ccc(-n3c(-c4cccc(Br)c4)nc4ccccc4c3=O)cc2)cc1,250 µg/mL,MTCC 282,agar diffusion,18 mm
CSC1=NC(c2ccccc2Cl)C(C#N)=C(N)N1,50 µg/mL,MTCC 282,agar diffusion,15 mm
N=C1OCC(=O)N1CCCNc1ccnc2cc(Cl)ccc12,200 µg/mL,,agar diffusion,46 mm
COC1=CC(=O)C[C@@H](C)[C@]12Oc1c(Cl)c(OC)cc(OC)c1C2=O,250 µg/mL,MTCC 282,agar diffusion,28 mm
O=C1CC(c2ccccc2)CC2=C1C(c1ccc(C3C4=C(CC(c5ccccc5)CC4=O)OC4=C3C(=O)CC(c3ccccc3)C4)cc1)C1=C(CC(c3ccccc3)CC1=O)O2,140 µg/disc,ATCC 10949,agar diffusion,0 mm
CCCCCCCCCCCCCCCCCCCCCC[C@H](O)CCCCCC,1000 µg/mL,,agar diffusion / agar,11.5 mm
O=C1NC2(CO1)O/C(=C/c1ccc([N+](=O)[O-])cc1)C(=O)N2CCCNc1ccnc2cc(Cl)ccc12,400 µg/mL,,agar diffusion,51 mm
COc1cc(C2SCC(=O)N2n2c(-c3sc(NC(C)=O)nc3C)n[nH]c2=S)cc(OC)c1OC,100 µg/mL,,agar diffusion,17 mm
COc1cc(-c2oc3cc(O)cc(O)c3c(=O)c2O)ccc1O,100 µg/disc,ATCC64958,agar diffusion / agar,15.5 mm
CC(=O)Nc1ccc(F)cc1Sc1ncccc1[N+](=O)[O-],100 µg/mL,MTCC 282,,18 mm
O=[N+]([O-])c1ccc2c(c1)nc(C(F)(F)F)n2CCCCCl,500 µg/mL,MTCC 1344,,450 mm
N#Cc1ccc(Nc2nc(Oc3cccc4cccnc34)nc(N3CCOCC3)n2)cc1C(F)(F)F,100 µg/disc,MTCC 282,agar diffusion / agar,26 mm
O=C(Cc1ccc(-c2nc(-c3ccccc3)c(-c3ccccc3)s2)cc1)CN1CCCC1,100 µg/mL,ATCC 16404,agar diffusion / agar,21 mm
CC(C)c1ccc2c(c1)CC[C@H]1[C@](C)(CO)CCC[C@]21C,100 µg/disc,ATCC64958,agar diffusion / agar,12 mm
CS(=O)(=O)c1nc(N)c(C#N)c(-c2ccccc2[N+](=O)[O-])n1,50 µg/mL,MTCC 282,agar diffusion,19 mm
CC(=O)Nc1ccc(Cl)cc1Sc1ncccc1[N+](=O)[O-],100 µg/mL,MTCC 282,,14 mm
COc1ccc(C2SCC(=O)N2n2c(-c3sc(NC(C)=O)nc3C)n[nH]c2=S)cc1,100 µg/mL,,agar diffusion,9 mm
Cc1ccc(N2NOC(=O)C2S(=O)(=O)Nc2nc3c([N+](=O)[O-])cccc3s2)cc1,250 µg/mL,MTCC 282,agar diffusion,19 mm
COc1ccc(C2SCC(=O)N2NC(=O)Cn2c(=O)c(C)nc3ccccc32)cc1O,50 µg/mL,,,12 mm
O=C(NN=Cc1ccc(Br)cc1)c1snnc1C(F)(F)F,150 µg/mL,MTCC 1344,agar diffusion / agar,0 mm
N#Cc1ccc(Nc2nc(Oc3cccc4cccnc34)nc(N3CCCCC3)n2)cc1C(F)(F)F,100 µg/disc,MTCC 282,agar diffusion / agar,23 mm
CS(=O)(=O)C1=NC(c2cccc3cc4ccccc4cc23)C(C#N)=C(N)N1,100 µg/mL,MTCC 282,agar diffusion,20 mm
CCOC(=O)Cn1c(C(F)(F)C(F)(F)F)nc2cc(C(=O)c3ccccc3)ccc21,500 µg/mL,MTCC 1344,,1000 mm
O=C(O)c1cc(O)c(O)c(O)c1,100 µg/disc,ATCC64958,agar diffusion / agar,28.9 mm
CC1(C)CC(=O)C2=C(C1)OC1=C(C(=O)CC(C)(C)C1)C2c1cccc(C2C3=C(CC(C)(C)CC3=O)OC3=C2C(=O)CC(C)(C)C3)c1,20 µg/mL,ATCC 10949,agar diffusion,0 mm
CCOC(=O)Cn1c(C(F)(F)C(F)(F)F)nc2ccc(C(=O)c3ccccc3)cc21,500 µg/mL,MTCC 1344,,900 mm
O=C1NC2(CO1)O/C(=C/c1ccc(Cl)cc1)C(=O)N2CCCNc1ccnc2cc(Cl)ccc12,200 µg/mL,,agar diffusion,17 mm
O=[N+]([O-])c1ccc2nc(C(F)(F)F)n(CCCCCl)c2c1,500 µg/mL,MTCC 1344,,650 mm
Cc1nc2ccccc2n(CC(=O)NN2C(=O)CSC2c2ccc(O)cc2)c1=O,100 µg/mL,,,20 mm
CCn1c(C(F)(F)F)nc2ccc([N+](=O)[O-])cc21,500 µg/mL,MTCC 1344,,800 mm
O=C(CNc1ccc(Cl)cc1)Cc1ccc(-c2nc(-c3ccccc3)c(-c3ccccc3)s2)cc1,100 µg/mL,ATCC 16404,agar diffusion / agar,19 mm
O=C1CCCC2=C1C(c1cccc(C3C4=C(CCCC4=O)OC4=C3C(=O)CCC4)c1)C1=C(CCCC1=O)O2,40 µg/disc,ATCC 10949,agar diffusion,0 mm
CC(=O)Nc1nc(C)c(-c2n[nH]c(=S)n2N2C(=O)CSC2c2ccccc2O)s1,100 µg/mL,,agar diffusion,14 mm
CC1(C)CC(=O)C2=C(C1)OC1=C(C(=O)CC(C)(C)C1)C2c1ccc(C2C3=C(CC(C)(C)CC3=O)OC3=C2C(=O)CC(C)(C)C3)cc1,40 µg/disc,ATCC 10949,agar diffusion,0 mm
Cc1ccc(N2NOC(=O)C2S(=O)(=O)Nc2ccc(-n3c(-c4ccccc4[N+](=O)[O-])nc4ccccc4c3=O)cc2)cc1,250 µg/mL,MTCC 282,agar diffusion,24 mm
Clc1ccc(COC(Cn2ccnc2)c2ccc(Cl)cc2Cl)c(Cl)c1,100 µg/mL,MTCC 282,,18 mm
CC(=O)N1CCN(c2nc(Nc3ccc(C#N)c(C(F)(F)F)c3)nc(Oc3cccc4cccnc34)n2)CC1,100 µg/disc,MTCC 282,agar diffusion / agar,24 mm
CSC1=NC(c2cccc([N+](=O)[O-])c2)C(C#N)=C(N)N1,25 µg/mL,MTCC 282,agar diffusion,12 mm
O=C(NN=Cc1ccco1)c1snnc1C(F)(F)F,150 µg/mL,MTCC 1344,agar diffusion / agar,0 mm
N#Cc1ccc(Nc2nc(Oc3cccc4cccnc34)nc(N3CCN(c4ccccn4)CC3)n2)cc1C(F)(F)F,100 µg/disc,MTCC 282,agar diffusion / agar,24 mm

Repeating the first 3 entries:

| structure | dose | strain or isolate | method | value |
|---|---|---|---|---|
| Cc1ccc(N2NOC(=O)C2S(=O)(=O)Nc2ccc(-n3c(-c4ccccc4Cl)nc4ccccc4c3=O)cc2)cc1 | 250 µg/mL | MTCC 282 | agar diffusion | 22 mm |
| CC(=O)Nc1nc(C)c(-c2n[nH]c(=S)n2N2C(=O)CSC2c2ccc(N(C)C)cc2)s1 | 100 µg/mL |  | agar diffusion | 19 mm |
| CC(=NNC(=O)c1snnc1C(F)(F)F)c1ccc(Br)cc1Br | 150 µg/mL | MTCC 1344 | agar diffusion / agar | 0 mm |